Columns and labels:
[1] = test system: organotypic hippocampal slices; experiment: Glutamate insult in organotypic hippocampal slice culture, propidium iodide uptake; conditions: glutamate 5 mM, 3 hours
[2] = test system: organotypic hippocampal slices; experiment: LDH cytotoxicity assay in glutamate-insulted organotypic hippocampal culture
[3] = test system: organotypic hippocampal slices; conditions: NsPLA2 2 ug/ml during insult period (90 mins); CA2/3 region
[4] = test system: organotypic hippocampal slices; experiment: NMDA, KA and AMPA insult in organotypic hippocampal culture; conditions: 3 hr, NsPLA2 2 ug/ml concurrently

B1: NsPLA2 (protein)
chain: NLYQFKNMVQCTVPNRSWWHFADYGCYCGRGGSGTPVDDLDRCCQIHDNCYNEAEKISRCWPYFKTYSYECSQGTLTCKGGNNACAAAVCDCDRLAAICFAGAPYNDNNYNIDLKARCQ
modifications: Naja sputatrix
In the case of B1, the “neuroprotection in glutamate induced neuronal injury compared with positive control MK801” value [1] is reported as “higher than that produced by the positive control”, the “cytotoxicity (LDH assay) compared to untreated control with glutamate insult” value [2] is reported as “reduced cytotoxicity” and the “protection (neuroprotection in OGD)” value [3] is reported as 95%. For the same molecule, the “protection of the CA1 region” value ([4]; 10 uM AMPA) was 30%, the “protection of the CA1 region” value ([4]; 20 uM NMDA) was 70% and the “neuroprotection at the CA3 region” value ([4]; 100 uM KA) was 50%.

Reference: patent US7939064B2 (priority 2006, dated 2011)
